Data published in the supplement of paper PMC9931576.
Human monoclonal antibodies against the spike receptor-binding domain (heavy:light variable regions). IC50 against pseudoviruses bearing the spike of naturally observed variants; lower = stronger; >10 µg/ml means not reached at the top dose. No active / inactive call. The stated detection limit is 0.0005 µg/ml; values near or below 0.001 µg/ml lie at the floor of the assay.

What was measured:
Test in all cases: pseudovirus neutralization IC50; higher = weaker neutralization
[1] = target: SARS-CoV-2 Omicron BA.1 spike pseudovirus
Protocol: (§1)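 Single-round VSV luciferase pseudovirus mixed with antibody dilutions for 1 h and put on Huh-7 cells for about a day; IC50 from the dose curve.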

[2] = target: SARS-CoV-2 Omicron BA.2 spike pseudovirus
Protocol: as §1

[3] = target: SARS-CoV-2 Omicron BA.2.75 spike pseudovirus
Protocol: as §1

[4] = target: SARS-CoV-2 Omicron BA.5 spike pseudovirus
Protocol: as §1

[5] = target: SARS-CoV-2 Omicron BQ.1.1 spike pseudovirus
Protocol: as §1

[6] = target: SARS-CoV-2 Omicron XBB spike pseudovirus
Protocol: as §1

[7] = target: SARS-CoV-2 early D614G spike pseudovirus
Protocol: as §1

B1: BD55-6461 (protein)
chain 1: QLQLQESGPRLVKPSETLSLTCSVSGGSISSTTYYYWGWVRQSPGKGLEWIGTIHFDGTIHYNPSLKRRVTISVDTPKTQFSLRLTSVTAADTAVYFCTRPEIISGYSNEWQGPTFYFKSWGQGTQVTVSS
chain 2: SYVLTQPPSVSVAPGKTATITCVENNIGSQSVHWYQQKPGQAPVLVVFDNTARPSTIPERFSGFTSGNTATLTITGVEVGDEADYFCQVWDTSRNLVVFGGGTKVTVL
pseudovirus neutralization IC50 [1]: > 10 µg/mL
pseudovirus neutralization IC50 [2]: > 10 µg/mL
pseudovirus neutralization IC50 [3]: > 10 µg/mL
pseudovirus neutralization IC50 [4]: > 10 µg/mL
pseudovirus neutralization IC50 [5]: > 10 µg/mL
pseudovirus neutralization IC50 [6]: > 10 µg/mL
pseudovirus neutralization IC50 [7]: 2.02 µg/mL

B2: BD55-6467 (protein)
chain 1: EVQLVESGGGLVQPGGSLRLSCAASGFTFSTFPMHWVRQAPGKGLEYVSYISSDGGSTHYANSVKGRFTISRDNSKNTLFLQMGSLRAEDMAVYYCARDLDYDAWRGSGMDVWGQGTTVTVSS
chain 2: QSVLTQPPSVSGAPGQRVTISCTGSSSNIGAGYDIHWYQQLPGTAPKLLIYGNNNRPSGVPDRFSGSKSGTSASLAITGLQAEDEADYYCQSYDSSLSGHVVFGGGTKLTVL
pseudovirus neutralization IC50 [1]: > 10 µg/mL
pseudovirus neutralization IC50 [2]: > 10 µg/mL
pseudovirus neutralization IC50 [3]: > 10 µg/mL
pseudovirus neutralization IC50 [4]: > 10 µg/mL
pseudovirus neutralization IC50 [5]: > 10 µg/mL
pseudovirus neutralization IC50 [6]: > 10 µg/mL
pseudovirus neutralization IC50 [7]: 4.07 µg/mL

B3: BD55-6482 (protein)
chain 1: QVQMVQSGAEVKKPGASVKVSCQAYGYTFNSYDINWVRQATGQGLEWIGWMSPKSGQTGFAHKFQGRVNMTSDTSISTVYMELSSLGSDDTAVYFCARDAYGSNYYYYTMDVWGQGTTVTVSS
chain 2: DIQMTQSPSSLSASVGDRVTISCRASQSITYHLNWYQQKPGKAPKFLIHAASSLQSGVPSRFSGSGSGTDFTLTINSLQPEDFATYYCQQSYSFPSTFGGGTKVEI
pseudovirus neutralization IC50 [1]: > 10 µg/mL
pseudovirus neutralization IC50 [2]: > 10 µg/mL
pseudovirus neutralization IC50 [3]: > 10 µg/mL
pseudovirus neutralization IC50 [4]: > 10 µg/mL
pseudovirus neutralization IC50 [5]: > 10 µg/mL
pseudovirus neutralization IC50 [6]: > 10 µg/mL
pseudovirus neutralization IC50 [7]: > 10 µg/mL

B4: BD55-6466 (protein)
chain 1: EVHVVESGGGLVQPGRSLRLTCTGAGFTFADSALGWFRQAPGKGLEWIGFIRNKAYDGTTEYAASVKGRFTISRDDSKSVAYLQMNSLKPEDTAFYYCARDAFSSSWYGAGWFDPWGQGTLVTVSS
chain 2: DIVMTQSPDSLAVSLGERATINCKSSQSVLYSAGNRNYLAWYQQKPGQPPKVLLYWASTRESGVPDRFSGSGSGTDFTLTISSLQAEDVAIYYCQQYYSNPLTFGGGTKVEIK
pseudovirus neutralization IC50 [1]: 8.44 µg/mL
pseudovirus neutralization IC50 [2]: > 10 µg/mL
pseudovirus neutralization IC50 [3]: > 10 µg/mL
pseudovirus neutralization IC50 [4]: > 10 µg/mL
pseudovirus neutralization IC50 [5]: > 10 µg/mL
pseudovirus neutralization IC50 [6]: > 10 µg/mL
pseudovirus neutralization IC50 [7]: 1.66 µg/mL

B5: BD55-6503 (protein)
chain 1: EVQLLGSGGGLVQPGGSLTLSCAASGFTFSSYTMTWFRQGPGKGLAWVSSISRSGGGAFHADAVKGRFTISRDNSKSTLYLQMNSLRVEDTAVYYCAKDFGDSVGEYFDYWGQGILVTVSS
chain 2: DIVMTQSPDSLAVSLGERATINCKSSQSILSSSKNQHYLAWYQQKPGQPPRLLIYWASTRASGVPDRFSGSGSGTDFTLTISSLQAEDAAVYYCQQYYVTPALTFGGGTKVEIK
pseudovirus neutralization IC50 [1]: > 10 µg/mL
pseudovirus neutralization IC50 [2]: > 10 µg/mL
pseudovirus neutralization IC50 [3]: > 10 µg/mL
pseudovirus neutralization IC50 [4]: > 10 µg/mL
pseudovirus neutralization IC50 [5]: > 10 µg/mL
pseudovirus neutralization IC50 [6]: > 10 µg/mL
pseudovirus neutralization IC50 [7]: > 10 µg/mL

B6: BD55-6475 (protein)
chain 1: QVQLVESGGGVVQSGRSLRLSCEASGFIFGDHGMHWVRQAPGKGLEWVAVIWYDGSKKFYTDSVKGRFTISRDTSKSTLYLQMNSLGAEDTAVYFCARDTWGTMVRGNNFYYGMDVWGQGTTVIVSS
chain 2: DIQMTQSPSSLSASVGDRVAITCRASQSIGNYLNWYQLKPGKSPKLLIYLTSNLQSGVPSRFSGSGSGTDYTLTINSLQPEDFATYYCQQSDSVPITFGQGTRLEIK
pseudovirus neutralization IC50 [1]: > 10 µg/mL
pseudovirus neutralization IC50 [2]: > 10 µg/mL
pseudovirus neutralization IC50 [3]: > 10 µg/mL
pseudovirus neutralization IC50 [4]: > 10 µg/mL
pseudovirus neutralization IC50 [5]: > 10 µg/mL
pseudovirus neutralization IC50 [6]: > 10 µg/mL
pseudovirus neutralization IC50 [7]: > 10 µg/mL

B7: BD55-6495 (protein)
chain 1: EVQLVESGGGLVQPGGALRLTCAASGFSFSRFWMNWVRQAPGKGLEWVANIKEDGNEKNYVDSVKGRFTIFRDNAEKSLFLQMESLRGDDTAVYYCARGYRDVVVAAPIPPEAFDIWGQGTTVTVSS
chain 2: SYELTQPPSVSVSPGQTARITCSGEALPRQNAYWYQQKPGQAPVLVIYKDTERPSGIPERFSGSSSGTKVTLTIRGVQAEDEADYYCQSADSSGTSYVFGPGTKVTVL
pseudovirus neutralization IC50 [1]: > 10 µg/mL
pseudovirus neutralization IC50 [2]: > 10 µg/mL
pseudovirus neutralization IC50 [3]: > 10 µg/mL
pseudovirus neutralization IC50 [4]: > 10 µg/mL
pseudovirus neutralization IC50 [5]: > 10 µg/mL
pseudovirus neutralization IC50 [6]: > 10 µg/mL
pseudovirus neutralization IC50 [7]: 4.11 µg/mL

B8: BD55-6485 (protein)
chain 1: QVQLQESGSRLVKPSQTLSLTCTVSGDSISNSGYSWSWIRQPPGGGLEWIGYIYHDGSPFYNAPLRGRVTISMDRSKDQFSLRLTSATVADTAVYFCARETSTSGFYYFDFWGQGTLVTVSS
chain 2: DIQMTQSPSSLSASVGDRVTITCRASQSINMYLNWYQVKPGKAPKFLLYATSNLPSGVPSRFSGSGSETEFTLTISSLQPEDFATYFCQQSYSTPYTFGQGTKLEIK
pseudovirus neutralization IC50 [1]: > 10 µg/mL
pseudovirus neutralization IC50 [2]: > 10 µg/mL
pseudovirus neutralization IC50 [3]: > 10 µg/mL
pseudovirus neutralization IC50 [4]: > 10 µg/mL
pseudovirus neutralization IC50 [5]: > 10 µg/mL
pseudovirus neutralization IC50 [6]: > 10 µg/mL
pseudovirus neutralization IC50 [7]: > 10 µg/mL

B9: BD55-6480 (protein)
chain 1: QVQLQESGPGLVKPSETLSLTCTVSGDSINSDIYYWGWVRQPPGKGLAWIGLINYRGSTDYSPSLKSRVTIAVDTSKNQFSLKLSSVTAADTAVYFCARGTHTYPHQSHNYYYYNGMDVWGQGTTVTVSS
chain 2: DIQMTQSPSSLSASVGDRVTITCRASQTITNYLSWYQLKPGKAPKLLIYAASTLQSGVPSRFSGSGSGTDFTLTITSLEPEDFATYSCQQSYTTPFTFGPGTKVDIK
pseudovirus neutralization IC50 [1]: > 10 µg/mL
pseudovirus neutralization IC50 [2]: > 10 µg/mL
pseudovirus neutralization IC50 [3]: > 10 µg/mL
pseudovirus neutralization IC50 [4]: > 10 µg/mL
pseudovirus neutralization IC50 [5]: > 10 µg/mL
pseudovirus neutralization IC50 [6]: > 10 µg/mL
pseudovirus neutralization IC50 [7]: > 10 µg/mL

B10: BD55-6493 (protein)
chain 1: QLQLQESGPGLVKPSGTLSLTCSVTGGSVSSTSYSWAWIRQPPGKGLEWIGTINYSGTTSYNPSLKSRLTMSVDSSKNQFSLKLNSVAAADTAVYFCARQTGDPEFDHWGQGSLVAVSS
chain 2: DIQMTQSPSTLSASVGDRVTITCRASQSISRWLAWYQQHPGKAPNLLIYKASILENGVPSRFSGSGSGTEFTLTISSLQPDDFATYYCQQYSTNFVTFGQGTKVEIK
pseudovirus neutralization IC50 [1]: > 10 µg/mL
pseudovirus neutralization IC50 [2]: > 10 µg/mL
pseudovirus neutralization IC50 [3]: > 10 µg/mL
pseudovirus neutralization IC50 [4]: > 10 µg/mL
pseudovirus neutralization IC50 [5]: > 10 µg/mL
pseudovirus neutralization IC50 [6]: > 10 µg/mL
pseudovirus neutralization IC50 [7]: 1.91 µg/mL

B11: BD55-6477 (protein)
chain 1: QVQLVQSGAEVMKPGSSVKVSCKASGGIFSTYTFTWVRQAPGQGLEWMGKITPILDLALYSQNFQGRVTITADKSTSTTYMELSSLRSDDTAIYYCARIHDSYFDPWGQGTLVTVSS
chain 2: QSALTQPPSASGSLGQSVTISCTGTSNDVGGYNYVSWYQQHPGKAPKLIIYEVVKRPSGVPDRFSGSKSGNTASLTVSGLQAEDEADYYCSSYAGSPYVFGTGTKVSVL
pseudovirus neutralization IC50 [1]: 0.0813 µg/mL
pseudovirus neutralization IC50 [2]: > 10 µg/mL
pseudovirus neutralization IC50 [3]: > 10 µg/mL
pseudovirus neutralization IC50 [4]: > 10 µg/mL
pseudovirus neutralization IC50 [5]: > 10 µg/mL
pseudovirus neutralization IC50 [6]: > 10 µg/mL
pseudovirus neutralization IC50 [7]: 3.13 µg/mL

B12: BD55-6511 (protein)
chain 1: VQLVQSGAELRKPGESLRISCQGSGYRFSNNWITWVRQVPGKGLEWMGRMDPTDSYAKYSPSFQGHVTMSADTSISTAYLQWSSLKASDTATYYCATQLCGGDCPIESWGPGTLVTVSS
chain 2: DIQMTQSPSSVSASVGDRVTITCRASPGIRHYVAWFQQKPGKAPKSLIYAASSLHSGVPFRFSGSGSGTDFTLTINSLQPEDFATYYCQQYDTNPPTFGPGTKVEVK
pseudovirus neutralization IC50 [1]: > 10 µg/mL
pseudovirus neutralization IC50 [2]: > 10 µg/mL
pseudovirus neutralization IC50 [3]: > 10 µg/mL
pseudovirus neutralization IC50 [4]: > 10 µg/mL
pseudovirus neutralization IC50 [5]: > 10 µg/mL
pseudovirus neutralization IC50 [6]: > 10 µg/mL
pseudovirus neutralization IC50 [7]: > 10 µg/mL
